Consider twelve sequences from publication doi:10.1101/2022.12.01.518643 (bioRxiv, 2022).

The test system of the data set is HLA alleles of HEK293 cells. Briefly: HLA restriction of naturally processed OC43 peptides. More on the design: species or system human. The conditions noted are these: MHC-II peptides; elution, binding and T cell assays.
For the sequence “YLAISNELLLTVPTK [Peptide P1, OC43 hemagglutinin esterase 259–273, naturally processed peptide eluted from HLA-DP]”, the HLA restriction entry is on record as “DP4”.
Take “IHFSYVPTKYVTARVSPG [Peptide P7, OC43 spike 1147–1164, naturally processed peptide eluted from HLA-DP]”: the HLA restriction entry is “DP4”.
With “LSDFINGIFAKVKNTK [Peptide P3, OC43 spike 97–111, naturally processed peptide eluted from HLA-DP]” the entry was “DP4”; with “EGQQIIFYEGVNFTP [Peptide P8, OC43 hemagglutinin esterase 93–107, naturally processed peptide eluted from HLA-DR]”, “DR2b”; with “SRQYLLAFNQDGIIFN [Peptide P13, OC43 spike 271–286, naturally processed peptide eluted from HLA-DR]”, “DR2b”.
Turning to “APYGLYFIHFSYVPTK [Peptide P6, OC43 spike 1140–1155, naturally processed peptide eluted from HLA-DP]”, the HLA restriction result is “DP4”.
The value for “ITTGYRFTNFEPFT [Peptide P5, OC43 spike 760–773, naturally processed peptide eluted from HLA-DP]” was “DP4”; that for “NRGRQFYEFYNDVKPP [Peptide P14, OC43 envelope 62–78, naturally processed peptide eluted from HLA-DP]” was “DP4”; that for “LFYTQVYKNMAVYRS [Peptide P9, OC43 hemagglutinin esterase 128–142, naturally processed peptide eluted from HLA-DR]” was “DR2a,DR2b”.
In the case of “LTALNAYVSQQLSDS [Peptide P11, OC43 spike 1085–1099, naturally processed peptide eluted from HLA-DR]”, the HLA restriction entry is reported as “DR2b”.
With “GAFFFGSRLELAKVQN [Peptide P2, OC43 nucleoprotein 321–336, naturally processed peptide eluted from HLA-DP]” the entry was “DP4”; with “PSGGNVVPYYSWFSG [Peptide P10, OC43 nucleoprotein 54–68, naturally processed peptide eluted from HLA-DR]”, “DR2b”.
